Compound potency records, mixed from different reports. Data source: NIAID ChemDB in PubChem.

Common to all: tests on isolated targets; organism: HIV-1; target: Protease

Fold resistance: result on the changed form divided by that on wild type.

smiles | strain | mutations | method | conditions | read-out | dose | result
Cc1cc(SC2=C(O)C[C@@](CCc3ccc(O)cc3)(C(C)C)OC2=O)c(C(C)(C)C)cc1CO |  | PR-V32I I84V | HPLC / absorbance |  | fold resistance |  | 6.9
CC(C)[C@H](NC(=O)OCc1ccccc1)C(=O)N[C@@H](Cc1ccccc1)C(O)[C@H](Cc1ccccc1)NC(=O)[C@@H](NC(=O)OC(C)(C)C)C(C)C |  |  | fluorescence |  | IC50 |  | <0.1 µM
CC(C(=O)O)C(C)C(=O)N[C@@H](Cc1ccccc1)[C@H](O)C(=O)N1CSC(C)(C)[C@H]1C(=O)NC(C)(C)C |  |  |  |  | inhibition | 77.5 µM | 0.05%
O=c1c(O)c(-c2ccc(O)cc2)oc2cc(O)cc(O)c12 |  |  | HPLC |  | inhibition | 50 µg/mL | 21%
CC(C)C[C@H](NC(=O)[C@@H](N)[C@@H](C)O)C(=O)N[C@@H](CC(N)=O)C(=O)N[C@@H](Cc1ccccc1)B(O)O |  | PR-M46I V82F I84V L90M | HPLC |  | fold resistance |  | 6.94
CC(C)[C@H](NC(=O)c1ccc2ccccc2n1)C(=O)N[C@@H](Cc1ccccc1)[C@H](O)CN1CC[C@@H](SCc2cccnc2)C[C@H]1C(=O)NC(C)(C)C |  | PR-I84V | fluorescence |  | fold resistance |  | 15.9
O=C(CCc1ccccc1)C(F)Cc1ccccc1 |  |  | fluorescence |  | inhibition | 270 µM | 95%
O=S1(=O)N(Cc2ccc(-c3cccs3)cc2)[C@H](COc2ccccc2)[C@H](O)[C@@H](O)[C@@H](COc2ccccc2)N1Cc1ccc(-c2cccs2)cc1 |  | PR-I84V |  |  | fold resistance |  | 30.4
Cc1ccc(Cl)cc1N1CCN(Cc2cn([C@@H](Cc3ccccc3)[C@H](Cc3ccccc3)NC(=O)OC3CCCC3)nn2)CC1 |  |  | fluorescence |  | IC50 |  | <5 µM
O=C(/C=C/c1ccc(O)c(O)c1)c1ccc(O)cc1O |  |  | fluorescence |  | inhibition | 50 µg/mL | 57.9%
CC(C)[C@H](NC(=O)OCc1ccccc1)C(=O)NC(Cc1ccccc1)C(O)C(F)(F)C(Cc1ccccc1)NC(=O)[C@@H](NC(=O)OCc1ccccc1)C(C)C |  |  | fluorescence |  | IC50 |  | <0.001 µM
O=S1(=O)[C@H](Cc2ccccc2)[C@H](OCc2ccccc2)[C@H](O)[C@@H](O)[C@@H](OCc2ccccc2)[C@H]1Cc1ccccc1 |  |  |  |  | Ki |  | 0.0006 µM
CC(C)[C@H](NC(=O)N(C)Cc1ccccn1)C(=O)N[C@@H](Cc1ccccc1)[C@H](O)[C@H](O)[C@H](Cc1ccccc1)NC(=O)[C@@H](NC(=O)N(C)Cc1ccccn1)C(C)C |  | PR-M46I | fluorescence |  | fold resistance |  | 1.43
O=C1N(Cc2cccc(O)c2)[C@H](CCc2ccccc2)[C@@H](CCc2ccccc2)N1Cc1cccc(O)c1 |  |  |  |  | Ki |  | 0.055 µM
Cc1cccc(C)c1OCC(=O)N[C@@H](Cc1ccccc1)[C@H](O)C(=O)N1CSC(C)(C)[C@H]1C(=O)NC(C)(C)C |  |  |  |  | inhibition | 95.9 µM | 0.05%
O=C(N[C@@H](Cc1ccccc1)[C@H](Cc1ccccc1)n1cc(CN2CCC(O)(c3ccc(Cl)cc3)CC2)nn1)OC1CCCC1 |  |  | fluorescence |  | IC50 |  | >5 µM
CC(C)[C@H](NC(=O)CN1CCOCC1)C(=O)N[C@@H](Cc1ccccc1)C(O)[C@H](Cc1ccccc1)NC(=O)[C@@H](NC(=O)OCc1ccccc1)C(C)C |  |  | fluorescence |  | IC50 |  | <0.005 µM
O=C(N[C@@H](Cc1ccccc1)[C@H](Cc1ccccc1)n1cc(CN2CCN(c3ccccc3)CC2)nn1)OC1CCCC1 |  |  | fluorescence |  | IC50 |  | <5 µM
O=C(NCc1ccc2c(c1)[C@H](O)[C@@H](O)c1cc(CNC(=O)OCc3ccccc3)ccc1C2=O)OCc1ccccc1 |  |  |  |  | Ki |  | 0.005 µM
O=C(N[C@@H](Cc1ccccc1)[C@H](Cc1ccccc1)n1cc(CN2CCN(c3cc(Cl)cc(Cl)c3)CC2)nn1)OC1CCCC1 |  |  | fluorescence |  | IC50 |  | <5 µM
O=S1(=O)N(Cc2cccc(I)c2)[C@H](COc2ccccc2)[C@H](O)[C@@H](O)[C@@H](COc2ccccc2)N1Cc1cccc(I)c1 |  | PR-V82A |  |  | fold resistance |  | 258
O=c1c(O)c(-c2ccc(O)cc2O)oc2cc(O)cc(O)c12 |  |  | HPLC |  | inhibition | 50 µg/mL | 8.8%
CN1[C@H](COc2ccccc2)[C@H](O)[C@@H](O)[C@@H](COc2ccccc2)N(C)S1(=O)=O |  | PR-V82A |  |  | fold resistance |  | 4.23
O=C(N[C@@H](Cc1ccccc1)[C@H](Cc1ccccc1)n1cc(CN2CCN(c3ccccc3Cl)CC2)nn1)OC1CCCC1 |  |  | fluorescence |  | IC50 |  | <5 µM
CC(C(=O)O)C(C)C(=O)N[C@@H](Cc1ccccc1)[C@H](O)C(=O)N1CSC[C@H]1C(=O)NC(C)(C)C |  |  |  |  | inhibition | 96.5 µM | 5%
O=S1(=O)N(Cc2cccc(-c3cccs3)c2)[C@H](COc2ccccc2)[C@H](O)[C@@H](O)[C@@H](COc2ccccc2)N1Cc1cccc(-c2cccs2)c1 |  | PR-G48V L90M |  |  | fold resistance |  | 8.18
Cc1cc(SC2=C(O)CC(CCc3ccc(O)cc3)(C3CCCCC3)OC2=O)c(C(C)(C)C)cc1CO |  | PR-V32I I84V | HPLC / absorbance |  | fold resistance |  | 40
Cc1ccccc1-n1nnc(C(c2ccccc2)(c2ccccc2)n2ccnc2)c1C |  |  | substrate cleavage / fluorescence |  | inhibition | 50 µg/mL | 52.6%
CC(C)(C)OC(=O)N[C@@H](Cc1ccccc1)[C@H](O)CNC[C@@H](O)[C@H](Cc1ccc(OCC(=O)N2CCOCC2)cc1)NC(=O)OC(C)(C)C |  | PR-V82A | HPLC |  | fold resistance |  | 32
CC(C)(C)OC(=O)N1Cc2ccccc2C[C@H]1[C@H](O)CNC[C@H](O)[C@@H]1Cc2ccccc2CN1C(=O)OC(C)(C)C |  |  | HPLC | pH 5.5 | IC50 |  | >10 µM
CC(C)[C@H](NC(=O)OCc1ccccc1)C(=O)N[C@@H](Cc1ccccc1)[C@H](O)[C@H](Cc1ccccc1)NC(=O)[C@@H](NC(=O)OCc1ccncc1)C(C)C |  |  | fluorescence |  | IC50 |  | ~0.005 µM
O=C1N(Cc2ccc(CO)cc2)[C@H](COc2ccccc2)[C@H](O)[C@@H](O)[C@@H](COc2ccccc2)N1Cc1ccc(CO)cc1 | IIIB | PR-L10F I84V PR-L90M | fluorescence |  | fold resistance |  | 0.739
Cc1ccc(Cl)cc1N1CCN(Cc2cn([C@@H](Cc3ccccc3)[C@H](Cc3ccccc3)NC(=O)NC3CCCC3)nn2)CC1 |  |  | fluorescence |  | IC50 |  | >5 µM
CNC(=O)[C@@H](NC(=O)[C@H](OCc1ccccc1)[C@H](O)[C@@H](O)[C@@H](OCc1ccccc1)C(=O)N[C@H]1c2ccccc2C[C@H]1O)C(C)C |  | PR-V82A |  |  | fold resistance |  | 2.78
CC(C)(C)OC(=O)N[C@@H](Cc1ccccc1)[C@H](O)CNC[C@@H](O)[C@H](Cc1ccccc1)NC(=O)NCc1ccccc1 |  |  | HPLC | pH 5.5 | IC50 |  | ~10 µM
CC(C)C[C@H](NC(=O)[C@@H](N)CO)C(=O)N[C@@H](CC(N)=O)C(=O)N[C@@H](Cc1ccccc1)B(O)O |  | PR-M46I V82F I84V L90M | HPLC |  | fold resistance |  | 7.67
CC(C)(C)OC(=O)N[C@@H](Cc1ccccc1)[C@H](O)CNC[C@@H](O)[C@H](Cc1ccccc1)NC(=O)[C@@H](NC(=O)OCCOCc1ccccc1)C(C)(C)C |  |  | HPLC | pH 5.5 | IC50 |  | <10 µM
N=C1N(Cc2ccccc2)[C@H](Cc2ccccc2)[C@H](O)[C@@H](O)[C@@H](Cc2ccccc2)N1Cc1ccccc1 |  |  |  |  | Ki |  | 0.22 µM
O=c1c(O[C@@H]2O[C@H](CO)[C@@H](O)[C@H](O)[C@H]2O)c(-c2ccc(O)c(O)c2)oc2cc(O)cc(O)c12 |  |  | fluorescence |  | inhibition | 50 µg/mL | 64.4%
CC(C)[C@H](NC(=O)[C@H](Cc1ccccc1)NC(=O)OCc1ccccc1)C(=O)N[C@@H](Cc1ccccc1)[C@H](O)CNC[C@@H](O)[C@H](Cc1ccccc1)NC(=O)OC(C)(C)C |  |  | HPLC | pH 5.5 | IC50 |  | <10 µM

5 of the rows above, restated:

smiles,strain,mutations,method,conditions,read-out,dose,result
CC(C)[C@H](NC(=O)CN1CCOCC1)C(=O)N[C@@H](Cc1ccccc1)C(O)[C@H](Cc1ccccc1)NC(=O)[C@@H](NC(=O)OCc1ccccc1)C(C)C,,,fluorescence,,IC50,,<0.005 µM
O=C(NCc1ccc2c(c1)[C@H](O)[C@@H](O)c1cc(CNC(=O)OCc3ccccc3)ccc1C2=O)OCc1ccccc1,,,,,Ki,,0.005 µM
O=C(N[C@@H](Cc1ccccc1)[C@H](Cc1ccccc1)n1cc(CN2CCN(c3ccccc3)CC2)nn1)OC1CCCC1,,,fluorescence,,IC50,,<5 µM
CC(C)(C)OC(=O)N1Cc2ccccc2C[C@H]1[C@H](O)CNC[C@H](O)[C@@H]1Cc2ccccc2CN1C(=O)OC(C)(C)C,,,HPLC,pH 5.5,IC50,,>10 µM
CC(C(=O)O)C(C)C(=O)N[C@@H](Cc1ccccc1)[C@H](O)C(=O)N1CSC[C@H]1C(=O)NC(C)(C)C,,,,,inhibition,96.5 µM,5%

Inhibition is in % at the dose shown (toxicity tests: loss of growth or viability). Lines come from different laboratories, so protocols vary. An empty or dashed field is not shown. ICn is the concentration giving n% inhibition.